Molecular target: Proto-oncogene tyrosine-protein kinase Src (Gallus gallus, UniProt P00523)

For `CN1CCC(Cn2nc(-c3ccc4cc(OCC(C)(C)O)ccc4c3)c3c(N)ncnc32)CC1`, the IC50 was > 10 µM.
